Measured values from several laboratories, pooled; numbers as filed in NIAID ChemDB.

Shared fields: growth or infection tests; species: Candida albicans; measure: MIC

Neighbouring rows are from separate reports. a–b is a range or a potency band. Blank or dashed fields: not listed here.

structure | setting | strain or isolate | value
CO[C@@H](n1cccn1)[C@@](O)(Cn1ccnc1)c1ccc(Cl)cc1 | - | - | >100 µg/mL
S=c1cc(Sc2ccccc2)ss1 | - | ATCC 10231 | 6.25 µg/mL
CC(C)CCCCCCCCC1CC(=O)NCC(=O)N[C@@H](CCCN)C(=O)N[C@@H](C(C)C)C(=O)N1 | - | ATCC 10231 | 2.5 µg/mL
CCCCCOc1ccc(-c2ccc(-c3ccc(C(=O)N[C@H]4CCCNC(=O)C5C[C@H](NC(=O)NC)CN5C(=O)C(C(C)O)NC(=O)C(CCc5ccc(O)cc5)NC(=O)C5C[C@@H](O)CN5C(=O)C(C(C)O)NC4=O)cc3)cc2)cc1 | - | ATCC CCH442 | 0.2 µg/mL
N/C(=N/N=C1CCCCCC1)SCc1ccc(Cl)cc1Cl | - | - | >200 µg/mL
CC(C)CCCCCCCCCC1CC(=O)NCC(=O)N[C@@H](CCCCN)C(=O)N[C@@H](C(C)C)C(=O)N1 | - | ATCC 10231 | 2.5 µg/mL
c1ccc(-c2csc(NN=C3CCCCCCC3)n2)cc1 | - | - | 3.12 µg/mL
C[C@H](N)C(=O)N[C@@H](C(=O)O)n1cc(F)c(=O)[nH]c1=O | - | 3153A | >100 µg/mL
CC1C=C(c2ccc(F)c(F)c2)C(=O)O1 | - | ATCC 44859 | >125 µM
CC(C)C(=O)/C=C1\Sc2ccccc2N1/C1=C/CCCCCCCCCC1 | - | ATCC 10231 | >100 µg/mL
C[C@@H](n1cnc2cc(-[n+]3cnc[nH]3)ccc2c1=O)[C@](O)(Cn1cncn1)c1ccc(F)cc1F | - | 60 strains | 10 µg/mL
C[C@H](n1nnnc1CCN1CCN(c2ccccn2)CC1)[C@](O)(Cn1cncn1)c1ccc(F)cc1F | - | - | 4 µg/mL
C=C(C(=O)O)c1ccccc1 | - | ATCC10259 | 200 µg/mL
O=C(O)c1cc([N+](=O)[O-])c(N=Nc2c(O)ccc3ccccc23)c([N+](=O)[O-])c1 | - | UBA 7 | 13.02 µg/mL
CC(O)C1NC(=O)C(CCc2ccc(O)cc2)NC(=O)C2C[C@@H](O)CN2C(=O)C(C(C)O)NC(=O)[C@@H](NC(=O)c2ccc(N3CCN(c4ccc(OCc5ccccc5)cc4)CC3)cc2)CCCNC(=O)C2C[C@H](N)CN2C1=O | - | ATCC 62376 | 0.2 µg/mL
C[C@H]1[C@H](O)[C@@H](C)/C=C/C=C/C=C/C=C/C=C/C=C/C=C/[C@H](O[C@@H]2O[C@H](C)[C@@H](O)[C@H](N)[C@@H]2O)C[C@@H]2O[C@](O)(C[C@@H](O)C[C@@H](O)CC[C@H](O)[C@@H](O)C[C@@H](O)CC(=O)O[C@H]1C)C[C@H](O)[C@H]2C(=O)O | - | 3153A | 1.25 µg/mL
C[C@H](n1nnnc1CCN1CCN(C(c2ccccc2)c2ccccc2)CC1)[C@](O)(Cn1cncn1)c1ccc(F)cc1F | - | - | 4 µg/mL
Cc1cccc(CSc2cc(C(N)=S)ccn2)c1 | - | 44859 | 62.5 µM
CCCCOc1cc(O)cc(C(=O)O)c1 | - | Clinical isolates | 125–250 µg/mL
O=C(O)c1cc([N+](=O)[O-])c(N=Nc2ccc(O)c3ccccc23)c([N+](=O)[O-])c1 | - | UBA 7 | 13.02 µg/mL
CO[C@@H](n1cncn1)[C@@](O)(Cn1cncn1)c1ccccc1F | - | - | >100 µg/mL
Cc1ccc(-c2nc3cc(C)ccc3o2)c(C)c1 | - | - | 25 µg/mL
CCC(=O)C1Sc2ccccc2N(C2CCCCCCC2)C1=O | - | ATCC 14053 | ≥100 µg/mL
C/C=C/C=C(/C)C(=O)O[C@H]1[C@H](O)[C@H](OCC23C4C=C(C(C)C)C2(C(=O)O)C(C=O)(C4)[C@@H]2CC[C@@H](C)[C@H]23)O[C@H](C)[C@H]1OC | - | 2381E | 0.06 µg/mL
N=C(N)c1ccc2nc(-c3ccc(-c4nc5ccc(C(=N)N)cc5[nH]4)[nH]3)[nH]c2c1 | - | Isolate 1866 | 0.78 µg/mL
CCCCOc1ccc(C(=O)O)c(O)c1 | - | Clinical isolates | 125–250 µg/mL
Cc1ccc2nc(-c3ccccc3F)oc2c1 | - | - | 25 µg/mL
N/C(=N/N=C1CCCC1)SCc1ccc(Cl)cc1Cl | - | - | >200 µg/mL
C[C@@H](N1CNc2cc(Cl)ccc2C1=O)[C@](O)(Cn1cncn1)c1ccc(F)cc1F | - | 60 strains | 0.07 µg/mL
CCC1C=C(c2cccnc2)C(=O)O1 | - | ATCC 44859 | 62.5 µM
CC(C)(C)OC(=O)N1CCC(Br)(C(=O)O)CC1 | - | ATCC10259 | 100 µg/mL
CCC1C=C(c2ccc(C)cc2)C(=O)O1 | - | ATCC 44859 | >125 µM
CCSc1cc(=S)ss1 | - | ATCC 10231 | 50 µg/mL
NC(=S)c1ccnc(SCc2ccc(Cl)cc2)c1 | - | 44859 | 62.5 µM
Clc1ccc(C(Cn2ccnc2)OCc2csc3c(Cl)cccc23)c(Cl)c1 | 48 h | 63 isolates | 4 µg/mL
C[C@H](n1nnnc1CCN1CCN(c2ccccc2Cl)CC1)[C@](O)(Cn1cncn1)c1ccc(F)cc1F | - | - | 4 µg/mL
COc1ccc(-c2nc3ccc(C)cc3o2)c(OC)c1 | - | - | 25 µg/mL
N/C(=N/N=C1CCCCCC1)SCc1ccccc1 | - | - | >200 µg/mL
CCCCCCCCOc1ccc(N2CCN(c3ccc(C(=O)N[C@H]4CCCNC(=O)C5C[C@H](N)CN5C(=O)C(C(C)O)NC(=O)C(Cc5ccc(C=O)cc5)NC(=O)C5CCCN5C(=O)C(C(C)O)NC4=O)cc3)CC2)cc1 | - | ATCC 10231 | 25 µg/mL
NC(=S)c1ccnc(SCc2ccccc2Cl)c1 | - | 44859 | >1000 µM
CCCOc1cc(O)cc(C(=O)O)c1 | - | Clinical isolates | 125–250 µg/mL
CC(C)C(=O)/C=C1/Sc2ccccc2N1Cc1ccccc1 | - | ATCC 10231 | ≥100 µg/mL
CC(N1CCN(c2ccc(-n3cnnn3)cc2)C1=O)[C@](O)(Cn1cncn1)c1ccc(F)cc1F | - | Azole-susceptible | 0.008 µg/mL
COc1cccc(C2=CC(C)OC2=O)c1 | - | ATCC 44859 | >125 µM
CO[C@@H](n1cncn1)[C@](O)(Cn1cccn1)c1ccc(Cl)cc1 | - | - | >100 µg/mL
Cc1ccc(-c2nc3ccc(C)cc3o2)c(C)c1 | - | - | 25 µg/mL
CCC(=O)/C=C1\Sc2ccccc2N1/C1=C/CCCCCCCCCC1 | - | ATCC 10231 | ≥100 µg/mL
CCCCCOc1ccc(-c2ccc(-c3ccc(C(=O)N[C@H]4CCCNC(=O)C5C[C@H](N)CN5C(=O)C(CCCN(C)C)NC(=O)C(CCc5ccc(O)cc5)NC(=O)C5C[C@@H](O)CN5C(=O)C(C(C)O)NC4=O)cc3)cc2)cc1 | - | ATCC CCH442 | 0.2 µg/mL
NC(=S)c1ccnc(SCc2ccc(F)cc2)c1 | - | 44859 | 62.5 µM
C[C@@H](n1ncn(-c2ccc(OCC(F)(F)C(F)F)cc2)c1=O)[C@](O)(Cn1cncn1)c1ccc(F)cc1F | - | 76 strains | 10 µg/mL
CCC1CC=C(C(=O)O)CC1 | - | ATCC10259 | >1000 µg/mL
S=c1cc(SCC2CCCC2)ss1 | - | ATCC 10231 | 100 µg/mL
CCCCCCCCOc1ccc(C(=O)O)c(OC)c1 | - | Clinical isolates | 125–250 µg/mL
CCC1C=C(c2ccc(Br)cc2)C(=O)O1 | - | ATCC 44859 | 62.5 µM
C[C@@H](c1ncncc1F)[C@](O)(Cn1cncn1)c1ccc(F)cc1F | - | 60 strains | ≤0.03 µg/mL
O=C(/C=C1\Sc2ccccc2N1C1CCCCCC1)c1ccccc1 | - | ATCC 14053 | 50 µg/mL
CCSc1ssc(=S)c1-c1ccccc1 | - | ATCC 10231 | >250 µg/mL
CCCOc1ccc(C(=O)O)c(OC)c1 | - | Clinical isolates | 125–250 µg/mL
C/C=C(/C(=O)O)c1ccccc1 | - | ATCC10259 | 100 µg/mL
CCCCCCCCOc1ccc(N2CCN(c3ccc(C(=O)N[C@H]4CCCNC(=O)C5C[C@H](N)CN5C(=O)C(C(C)O)NC(=O)C(Cc5ccc(C)cc5)NC(=O)C5CCCN5C(=O)C(C(C)O)NC4=O)cc3)CC2)cc1 | - | ATCC 62376 | 3.12 µg/mL
CCCC(=O)/C=C1\Sc2cc(OC)ccc2N1C1=CCCCCC1 | - | ATCC 14053 | >100 µg/mL
C[C@H](n1nnnc1CCN1CCN(c2ccc(F)cc2)CC1)[C@](O)(Cn1cncn1)c1ccc(F)cc1F | - | - | 2 µg/mL
CS[C@@H](n1cncn1)[C@](O)(Cn1cncn1)c1ccc(Cl)cc1 | - | - | >100 µg/mL
CCCCOc1ccc(C(=O)NN)c(O)c1 | - | Clinical isolates | 125–250 µg/mL
CC(=O)/C=C1\Sc2ccccc2N1C1CCCCCC1 | - | ATCC 14053 | 25 µg/mL
CCCCCCCCOc1ccc(N2CCN(c3ccc(C(=O)N[C@H]4CCCNC(=O)C5C[C@H](N)CN5C(=O)C(C(C)O)NC(=O)C(OCc5ccncc5)NC(=O)C5CCCN5C(=O)C(C(C)O)NC4=O)cc3)CC2)cc1 | - | ATCC 10231 | 1.56 µg/mL
N/C(=N/N=C1CCCCCCC1)SCc1cccc(Cl)c1 | - | - | >200 µg/mL
CS[C@@H](n1cncn1)[C@](O)(Cn1cncn1)c1ccc(F)cc1F | - | - | >100 µg/mL
CCCCOc1ccc(O)c(C(=O)NN)c1 | - | Clinical isolates | 125–250 µg/mL
CN[C@@H]1[C@H](O[C@@H]2OC[C@@H](O)[C@H](O)[C@H]2O)[C@@H](O)[C@H](O[C@H]2c3cc(C)c(C(=O)N[C@H](C)C(=O)O)c(O)c3-c3c(cc4c(c3O)C(=O)c3cc(OC)cc(O)c3C4=O)[C@@H]2O)O[C@@H]1C | - | A9540 | 12.5 µg/mL
C[C@H](n1nnc(CCN2CCN(c3ccccc3Cl)CC2)n1)[C@](O)(Cn1cncn1)c1ccc(F)cc1F | - | - | 4 µg/mL
COc1cc2ncn([C@H](C)[C@](O)(Cn3cncn3)c3ccc(F)cc3F)c(=O)c2cc1OC | - | 60 strains | 1.25 µg/mL
CCCCCCOc1ccc(O)c(C(=O)NN)c1 | - | Clinical isolates | 125–250 µg/mL
CC1C=C(c2cccc3ccccc23)C(=O)O1 | - | ATCC 44859 | 62.5 µM
C[C@H](n1nnc(CCN2CCN(c3cccc(Cl)c3)CC2)n1)[C@](O)(Cn1cncn1)c1ccc(F)cc1F | - | - | 2 µg/mL
CCCCN1/C(=C2\CCN(Cc3ccccc3)CC2=O)Sc2ccccc21 | - | ATCC 10231 | 100 µg/mL
CCCCCC(CCCCC)c1ccc(N2CCN(c3ccc(C(=O)N[C@H]4CCCNC(=O)C5C[C@H](N)CN5C(=O)C(C(C)O)NC(=O)C(CCc5ccc(O)cc5)NC(=O)C5C[C@@H](O)CN5C(=O)C(C(C)O)NC4=O)cc3)CC2)cc1 | - | ATCC 62376 | 0.78 µg/mL
Cc1ccc2c(c1)S/C(=C\C(=O)C(C)C)N2C1=CCCCCC1 | - | ATCC 14053 | ≥100 µg/mL
CCCCCCCCCCCCSc1cc(=S)ss1 | - | ATCC 10231 | >250 µg/mL

For reference, 9 entries again:

structure	setting	strain or isolate	value
NC(=S)c1ccnc(SCc2ccc(Cl)cc2)c1	-	44859	62.5 µM
CCCCCCOc1ccc(O)c(C(=O)NN)c1	-	Clinical isolates	125–250 µg/mL
COc1cc2ncn([C@H](C)[C@](O)(Cn3cncn3)c3ccc(F)cc3F)c(=O)c2cc1OC	-	60 strains	1.25 µg/mL
CCCCOc1ccc(C(=O)O)c(O)c1	-	Clinical isolates	125–250 µg/mL
CC(C)C(=O)/C=C1\Sc2ccccc2N1/C1=C/CCCCCCCCCC1	-	ATCC 10231	>100 µg/mL
NC(=S)c1ccnc(SCc2ccc(F)cc2)c1	-	44859	62.5 µM
N/C(=N/N=C1CCCCCC1)SCc1ccc(Cl)cc1Cl	-	-	>200 µg/mL
NC(=S)c1ccnc(SCc2ccccc2Cl)c1	-	44859	>1000 µM
CCC1C=C(c2ccc(Br)cc2)C(=O)O1	-	ATCC 44859	62.5 µM